One experiment concerns Artemia salina. Particulars: in vivo, nauplii dead or immobilized after 24 h in the dark, triplicates; highest tested concentration 60 μM.
In a further experiment the test system is BgNav1. In words: Two-electrode voltage clamp, BgNav1 expressed in Xenopus laevis oocytes. It counts as cell-based, Blattella germanica. Background: In two-electrode clamp one electrode senses voltage and the other passes current.
For the next experiment, the target named is T1, rNaV1.3 (Rattus norvegicus, UniProt P08104).
T1 construct: expressed in transfected cells; host or cells: Xenopus laevis oocytes (cRNA injection)
Kind of experiment: Two-electrode voltage clamp, Nav1.3 in Xenopus laevis oocytes. Type of experiment: cell-based. Particulars: for fold increase in EC50 on Nav1.3 relative to alpha-1: reduced activity; for fold reduction of EC50 on Nav1.3 relative to alpha-1: enhanced activity compared to alpha-1.

The target in a further experiment is T2, hNav1.1 (Homo sapiens, UniProt P35498).
T2 construct: expressed in transfected cells; host or cells: Xenopus laevis oocytes (cRNA injection)
Kind of experiment: Two-electrode voltage clamp, Nav1.1 in Xenopus laevis oocytes. It counts as cell-based. Particulars: two-electrode voltage clamp in Xenopus laevis oocytes, Hill fit, n ≥ 3; highest tested concentration 50 μM.

Another experiment deals with T3, rNaV1.4 (Rattus norvegicus, UniProt P15390).
T3 construct: expressed in transfected cells; host or cells: Xenopus laevis oocytes (cRNA injection)
In words: Two-electrode voltage clamp, Nav1.4 in Xenopus laevis oocytes. It counts as cell-based. Particulars: for fold reduction of EC50 on Nav1.4 relative to alpha-1: relative to alpha-1 184 ± 65.4 nM.

For the next experiment, the target named is T4, hNav1.7 (Homo sapiens, UniProt Q15858).
T4 construct: expressed in transfected cells; host or cells: Xenopus laevis oocytes (cRNA injection)
Kind of experiment: Two-electrode voltage clamp, Nav1.7 in Xenopus laevis oocytes. It counts as cell-based. Particulars: two-electrode voltage clamp in Xenopus laevis oocytes, Hill fit, n ≥ 3.

Regarding `CC[C@H](C)[C@@H]1NC(=O)[C@@H](NC(=O)CN)CSSC[C@@H]2NC(=O)[C@@H]3CSSC[C@@H](C(=O)N[C@@H](CC(N)=O)C(=O)N4C[C@H](O)C[C@H]4C(=O)N4C[C@H](O)C[C@H]4C(=O)N[C@@H](CC(N)=O)C(=O)N[C@@H](CCC(N)=O)C(=O)O)NC(=O)[C@H](CCCCN)NC(=O)[C@H](Cc4ccccc4)NC(=O)[C@H](CC(N)=O)NC(=O)[C@H](Cc4c[nH]c5ccccc45)NC(=O)CNC(=O)[C@H](CSSC[C@H](NC(=O)[C@H](CCCCN)NC(=O)[C@H](CO)NC(=O)CNC(=O)[C@H]([C@@H](C)O)NC(=O)[C@H](C)NC1=O)C(=O)N[C@@H]([C@@H](C)O)C(=O)N[C@@H](CC(C)C)C(=O)N[C@@H](CO)C(=O)N[C@@H](CCCCN)C(=O)NCC(=O)N3)NC(=O)[C@H](CC(N)=O)NC(=O)[C@H](CCCCN)NC(=O)[C@H]([C@@H](C)O)NC2=O` [Peptide F8K], the “EC50 Artemia” value in the experiment with Artemia salina was “inactive”. Further, the “fold increase in EC50 on BgNav1 relative to alpha-1 (times lower activity)” value in the experiment on BgNav1 is reported as 8.9 fold.
For the molecule `CC[C@H](C)[C@@H]1NC(=O)[C@@H](NC(=O)CN)CSSC[C@@H]2NC(=O)[C@@H]3CSSC[C@@H](C(=O)N[C@@H](CC(N)=O)C(=O)N4C[C@H](O)C[C@H]4C(=O)N4C[C@H](O)C[C@H]4C(=O)N[C@@H](CC(N)=O)C(=O)N[C@@H](CCC(N)=O)C(=O)O)NC(=O)[C@H](CCCCN)NC(=O)[C@H](C)NC(=O)[C@H](CC(N)=O)NC(=O)[C@H](Cc4c[nH]c5ccccc45)NC(=O)CNC(=O)[C@H](CSSC[C@H](NC(=O)[C@H](Cc4ccccc4)NC(=O)[C@H](CO)NC(=O)CNC(=O)[C@H]([C@@H](C)O)NC(=O)[C@H](C)NC1=O)C(=O)N[C@@H]([C@@H](C)O)C(=O)N[C@@H](CC(C)C)C(=O)N[C@@H](CO)C(=O)N[C@@H](CCCCN)C(=O)NCC(=O)N3)NC(=O)[C@H](CC(N)=O)NC(=O)[C@H](CCCCN)NC(=O)[C@H]([C@@H](C)O)NC2=O` [Peptide F24A], at rNaV1.3, the “fold increase in EC50 on Nav1.3 relative to alpha-1” value is listed as 5- to 20 fold. For the same molecule, the “EC50 Nav1.1” value on hNav1.1 was “no activity at all”. Also, the “fold increase in EC50 on BgNav1 relative to alpha-1 (times lower activity)” value in the experiment on BgNav1 is 44- to 195 fold.
Consider `CC[C@H](C)[C@@H]1NC(=O)[C@@H](NC(=O)CN)CSSC[C@@H]2NC(=O)[C@@H]3CSSC[C@@H](C(=O)N[C@@H](CC(N)=O)C(=O)N4C[C@H](O)C[C@H]4C(=O)N4C[C@H](O)C[C@H]4C(=O)N[C@@H](CC(N)=O)C(=O)N[C@@H](CCC(N)=O)C(=O)O)NC(=O)[C@H](CCCCN)NC(=O)[C@H](Cc4ccccc4)NC(=O)[C@H](CC(N)=O)NC(=O)[C@H](Cc4c[nH]c5ccccc45)NC(=O)CNC(=O)[C@H](CSSC[C@H](NC(=O)[C@H](Cc4ccccc4)NC(=O)[C@H](CO)NC(=O)CNC(=O)[C@H]([C@@H](C)O)NC(=O)[C@H](C)NC1=O)C(=O)N[C@@H]([C@@H](C)O)C(=O)N[C@@H](CC(C)C)C(=O)N[C@@H](CO)C(=O)N[C@@H](CCCCN)C(=O)NCC(=O)N3)NC(=O)[C@H](CC(N)=O)NC(=O)[C@H](C)NC(=O)[C@H]([C@@H](C)O)NC2=O` [Peptide K18A], for which the “fold increase in EC50 on Nav1.3 relative to alpha-1” value on rNaV1.3 is reported as 5- to 20 fold. In addition, the “fold increase in EC50 on Nav1.4 relative to alpha-1” value at rNaV1.4 (negative impact on affinity) is on record as 3.8- to 30 fold.
On to `CC[C@H](C)[C@@H]1NC(=O)[C@@H](NC(=O)CN)CSSC[C@@H]2NC(=O)[C@@H]3CSSC[C@@H](C(=O)N[C@@H](C)C(=O)N4C[C@H](O)C[C@H]4C(=O)N4C[C@H](O)C[C@H]4C(=O)N[C@@H](CC(N)=O)C(=O)N[C@@H](CCC(N)=O)C(=O)O)NC(=O)[C@H](CCCCN)NC(=O)[C@H](Cc4ccccc4)NC(=O)[C@H](CC(N)=O)NC(=O)[C@H](Cc4c[nH]c5ccccc45)NC(=O)CNC(=O)[C@H](CSSC[C@H](NC(=O)[C@H](Cc4ccccc4)NC(=O)[C@H](CO)NC(=O)CNC(=O)[C@H]([C@@H](C)O)NC(=O)[C@H](C)NC1=O)C(=O)N[C@@H]([C@@H](C)O)C(=O)N[C@@H](CC(C)C)C(=O)N[C@@H](CO)C(=O)N[C@@H](CCCCN)C(=O)NCC(=O)N3)NC(=O)[C@H](CC(N)=O)NC(=O)[C@H](CCCCN)NC(=O)[C@H]([C@@H](C)O)NC2=O` [Peptide N27A], for which the “fold reduction of EC50 on Nav1.4 relative to alpha-1” value at rNaV1.4 is 1.6- to 3.2 fold. Also, the “EC50 Nav1.7” value at hNav1.7 is reported as “lower activity compared to alpha-1”. The “EC50 Nav1.1” value on hNav1.1 is recorded as “activity in the same range as alpha-1”.
Regarding `CC[C@H](C)[C@@H]1NC(=O)[C@@H](NC(=O)CN)CSSC[C@@H]2NC(=O)[C@@H]3CSSC[C@@H](C(=O)N[C@@H](CC(N)=O)C(=O)N4C[C@H](O)C[C@H]4C(=O)N4C[C@H](O)C[C@H]4C(=O)N[C@@H](C)C(=O)N[C@@H](CCC(N)=O)C(=O)O)NC(=O)[C@H](CCCCN)NC(=O)[C@H](Cc4ccccc4)NC(=O)[C@H](CC(N)=O)NC(=O)[C@H](Cc4c[nH]c5ccccc45)NC(=O)CNC(=O)[C@H](CSSC[C@H](NC(=O)[C@H](Cc4ccccc4)NC(=O)[C@H](CO)NC(=O)CNC(=O)[C@H]([C@@H](C)O)NC(=O)[C@H](C)NC1=O)C(=O)N[C@@H]([C@@H](C)O)C(=O)N[C@@H](CC(C)C)C(=O)N[C@@H](CO)C(=O)N[C@@H](CCCCN)C(=O)NCC(=O)N3)NC(=O)[C@H](CC(N)=O)NC(=O)[C@H](CCCCN)NC(=O)[C@H]([C@@H](C)O)NC2=O` [Peptide N30A], on rNaV1.3, the “fold increase in EC50 on Nav1.3 relative to alpha-1” value was 5- to 20 fold. At rNaV1.4, the “fold reduction of EC50 on Nav1.4 relative to alpha-1” value is 1.6- to 3.2 fold. At hNav1.7, the “EC50 Nav1.7” value is “lower activity compared to alpha-1”. Further, the “EC50 Nav1.1” value on hNav1.1 was “activity in the same range as alpha-1”.
For the molecule `CC[C@H](C)[C@@H]1NC(=O)[C@@H](NC(=O)CN)CSSC[C@@H]2NC(=O)[C@@H]3CSSC[C@@H](C(=O)N[C@@H](CC(N)=O)C(=O)N4C[C@H](O)C[C@H]4C(=O)N4C[C@H](O)C[C@H]4C(=O)N[C@@H](CC(N)=O)C(=O)N[C@@H](CCC(N)=O)C(=O)O)NC(=O)[C@H](CCCCN)NC(=O)[C@H](Cc4ccccc4)NC(=O)[C@H](CC(N)=O)NC(=O)[C@H](Cc4c[nH]c5ccccc45)NC(=O)CNC(=O)[C@H](CSSC[C@H](NC(=O)[C@H](Cc4ccccc4)NC(=O)[C@H](C)NC(=O)CNC(=O)[C@H]([C@@H](C)O)NC(=O)[C@H](C)NC1=O)C(=O)N[C@@H]([C@@H](C)O)C(=O)N[C@@H](CC(C)C)C(=O)N[C@@H](CO)C(=O)N[C@@H](CCCCN)C(=O)NCC(=O)N3)NC(=O)[C@H](CC(N)=O)NC(=O)[C@H](CCCCN)NC(=O)[C@H]([C@@H](C)O)NC2=O` [Peptide S7A], the “fold reduction of EC50 on Nav1.3 relative to alpha-1” value on rNaV1.3 was found to be 1.4 fold. Besides, the “fold reduction of EC50 on Nav1.4 relative to alpha-1” value at rNaV1.4 is reported as 1.6- to 3.2 fold. Also, the “EC50 Nav1.7” value at hNav1.7 is “lower activity compared to alpha-1”. For the same molecule, the “EC50 Nav1.1” value at hNav1.1 is recorded as “activity in the same range as alpha-1”.
In the case of `CC[C@H](C)[C@@H]1NC(=O)[C@@H](NC(=O)CN)CSSC[C@@H]2NC(=O)[C@@H]3CSSC[C@@H](C(=O)N[C@@H](CC(N)=O)C(=O)N4C[C@H](O)C[C@H]4C(=O)N4C[C@H](O)C[C@H]4C(=O)N[C@@H](CC(N)=O)C(=O)N[C@@H](CCC(N)=O)C(=O)O)NC(=O)[C@H](CCCCN)NC(=O)[C@H](Cc4ccccc4)NC(=O)[C@H](CC(N)=O)NC(=O)[C@H](Cc4c[nH]c5ccccc45)NC(=O)CNC(=O)[C@H](CSSC[C@H](NC(=O)[C@H](Cc4ccccc4)NC(=O)[C@H](CO)NC(=O)CNC(=O)[C@H](C)NC(=O)[C@H](C)NC1=O)C(=O)N[C@@H]([C@@H](C)O)C(=O)N[C@@H](CC(C)C)C(=O)N[C@@H](CO)C(=O)N[C@@H](CCCCN)C(=O)NCC(=O)N3)NC(=O)[C@H](CC(N)=O)NC(=O)[C@H](CCCCN)NC(=O)[C@H]([C@@H](C)O)NC2=O` [Peptide T5A], at rNaV1.3, the “fold reduction of EC50 on Nav1.3 relative to alpha-1” value stood at 1.1 fold. The “fold reduction of EC50 on Nav1.4 relative to alpha-1” value on rNaV1.4 is 1.6- to 3.2 fold. For the same molecule, the “EC50 Nav1.7” value on hNav1.7 is “lower activity compared to alpha-1”. Further, the “EC50 Nav1.1” value at hNav1.1 is “activity in the same range as alpha-1”.
On to `CC[C@H](C)[C@@H]1NC(=O)[C@@H](NC(=O)CN)CSSC[C@@H]2NC(=O)[C@@H]3CSSC[C@@H](C(=O)N[C@@H](CC(N)=O)C(=O)N4C[C@H](O)C[C@H]4C(=O)N4C[C@H](O)C[C@H]4C(=O)N[C@@H](CC(N)=O)C(=O)N[C@@H](CCC(N)=O)C(=O)O)NC(=O)[C@H](CCCCN)NC(=O)[C@H](Cc4ccccc4)NC(=O)[C@H](CC(N)=O)NC(=O)[C@H](Cc4c[nH]c5ccccc45)NC(=O)CNC(=O)[C@H](CSSC[C@H](NC(=O)[C@H](Cc4ccccc4)NC(=O)[C@H](CO)NC(=O)CNC(=O)[C@H]([C@@H](C)O)NC(=O)[C@H](C)NC1=O)C(=O)N[C@@H](C)C(=O)N[C@@H](CC(C)C)C(=O)N[C@@H](CO)C(=O)N[C@@H](CCCCN)C(=O)NCC(=O)N3)NC(=O)[C@H](CC(N)=O)NC(=O)[C@H](CCCCN)NC(=O)[C@H]([C@@H](C)O)NC2=O` [Peptide T10A], for which the “fold reduction of EC50 on Nav1.4 relative to alpha-1” value at rNaV1.4 is listed as 1.6- to 3.2 fold. For the same molecule, at hNav1.7, the “EC50 Nav1.7” value is listed as “lower activity compared to alpha-1”. The “EC50 Nav1.1” value at hNav1.1 is listed as “activity in the same range as alpha-1”.

Source of the values: PMC12836348, “Alanine Mutagenesis Identifies Specific Amino Acids of Nemertide Alpha‑1 Activity and Its Binding to Target Receptors” (Journal of Natural Products, 2025).
